Pooled drug test results. Numbers come from NIAID ChemDB, via PubChem.

Common to all: cytotoxicity tests; cells: MRC-5; measure: CC50

CCn: concentration that lowers growth or viability of the cells by n%. Neighbouring rows are from separate reports. An empty or dashed field is not shown. a–b is a range or a potency band.

{"structure": "O=C(O)P(=O)(O)O", "value": ">1000 µM"}
{"structure": "CC#Cc1cn([C@@H]2O[C@H](COP(=O)(O)Oc3ccccc3)[C@@H](O)[C@@H]2O)c(=O)[nH]c1=O", "value": ">500 µM"}
{"structure": "C[C@]1(CO)O[C@@H](n2ccc(N)nc2=O)C[C@@H]1O", "read by": "MTT", "value": "260 µM"}
{"structure": "CCO/N=C/c1cc(C)c(OCCC2CCN(c3ccc(C)nn3)CC2)cc1C", "read by": "neutral red", "value": ">0.1 µg/mL"}
{"structure": "COc1cc(C[C@H]2C(=O)OC[C@@H]2Cc2ccc3c(c2)OCO3)cc(OC)c1OC", "read by": "MTT", "value": "11.9 µg/mL"}
{"structure": "CC#Cc1cn([C@@H]2O[C@H](COP(=O)(O)OCC)[C@@H](O)[C@@H]2O)c(=O)[nH]c1=O", "value": ">250 µM"}
{"structure": "COC(=O)N[C@H](C(=O)N1CCC[C@H]1c1nc2ccc(-c3csc4c(-c5ccc(-c6cnc([C@@H]7CCCN7C(=O)[C@H](NC(=O)OC)c7ccccc7)[nH]6)cc5)csc34)cc2[nH]1)C(C)C", "read by": "resazurin", "value": ">50 µM"}
{"structure": "CCCCCCCCCCCCCCCCCCOC[C@@H](O)COP(=O)(O)C(=O)O", "value": "~1000 µM"}
{"structure": "N=C(N)c1cn([C@H]2C[C@H](O)[C@@H](CO)O2)c2ncnc(N)c12", "value": "16 µM"}
{"structure": "O=C(CCC(c1ccccc1)P(=O)(O)O)NO", "read by": "fluorescence", "value": ">59 µM"}
{"structure": "CCCCCCCCCCCCCCCCCCCCCCSC[C@H](O)COP(=O)(O)C(=O)O", "value": "320–1000 µM"}
{"structure": "CO/N=C/c1ccc(OCCC2CCN(c3ccc(C)nn3)CC2)cc1C", "read by": "neutral red", "value": ">0.1 µg/mL"}
{"structure": "Cc1cn([C@@H]2O[C@H](CO)[C@@H](O)[C@@H]2O)c(=S)[nH]c1=O", "value": ">730 µM"}
{"structure": "CCO/N=C/c1ccc(OCCC2CCN(c3ccc(C)nn3)CC2)cc1", "read by": "visual reading", "value": "10 µg/mL"}
{"structure": "O=C(O)P(=O)(O)O", "value": ">1000 µM"}
{"structure": "NC(=S)c1cn([C@@H]2O[C@H](CO)[C@@H](O)[C@@H]2O)c2ncnc(N)c12", "value": "3 µM"}
{"structure": "O=C1c2ccc(O)c(O)c2C(=O)c2c(O)ccc(O)c21", "value": ">36.7 µM"}
{"structure": "Cc1cc2c(cc1O)C1=CC(=O)C(C)(C)C1=CC2=O", "read by": "MTS", "value": "1.3 µM"}
{"structure": "CCCCCCCCCCCCSCC(COP(=O)([O-])OCC[N+](C)(C)C)OCCCCCCCCO", "read by": "neutral red", "value": ">100 µM"}
{"structure": "N=C(N)c1cn([C@@H]2O[C@H](CO)[C@@H](O)[C@@H]2O)c2ncnc(N)c12", "value": ">100 µM"}
{"structure": "CC(=O)O[C@H]1CC[C@@]2(C)C(CC[C@@]3(C)C4=CC[C@@]5(C(=O)O)CCC(C)(C)CC5[C@]4(C)CCC23)C1(C)C", "read by": "MTS", "value": "6.7 µM"}
{"structure": "CC(O)/C=C/C=C/C=C\\CCCCCCCc1cccc(O)c1O", "read by": "WST", "value": "48.7 µM"}
{"structure": "CO/N=C/c1ccc(OCCC2CCN(c3cncc(Cl)n3)CC2)cc1", "read by": "neutral red", "value": ">0.1 µg/mL"}
{"structure": "CC(Oc1ccc2ncccc2c1)C(=O)N/N=C/c1ccc(Cl)c(Cl)c1", "read by": "absorbance", "value": ">512 µM"}
{"structure": "CC(=O)Oc1ccc(/C=C/C(=O)OC[C@@H]2O[C@H](Oc3c(-c4ccc(O)cc4)oc4cc(O)cc(O)c4c3=O)[C@@H](OC(C)=O)[C@H](OC(C)=O)[C@H]2OC(C)=O)cc1", "value": ">34 µM"}
{"structure": "CCCCCCCCCCCCCCCCOC[C@@H](O)COP(=O)(O)C(=O)O", "value": "320–1000 µM"}
{"structure": "CC#Cc1cn([C@@H]2O[C@H](COP(=O)(O)OCC(F)(F)F)[C@@H](O)[C@@H]2O)c(=O)[nH]c1=O", "value": ">250 µM"}
{"structure": "CCCCCCCCOCCCOP(=O)(O)C(=O)O", "value": "1000 µM"}
{"structure": "CC(Oc1ccc2ncccc2c1)C(=O)N/N=C/c1cccc(Br)c1", "read by": "absorbance", "value": ">512 µM"}
{"structure": "O=C(O)c1cc(O)c2c(c1)C(=O)c1cccc(O)c1C2=O", "value": "12.9 µM"}
{"structure": "C=CC/C=C\\C/C=C\\CCCCCCCc1cccc(O)c1O", "read by": "WST", "value": "5.83 µM"}
{"structure": "CCCCCCCCCCCCCCCCCCCCCCOCCCOP(=O)(O)C(=O)O", "value": "210 µM"}
{"structure": "O=C1c2ccccc2C(=O)c2ccccc21", "value": ">48 µM"}
{"structure": "NC(=O)c1ncn([C@@H]2O[C@H](CO)[C@@H](O)[C@H]2O)n1", "value": "5–4500 µM"}
{"structure": "CO/N=C/c1ccc(OCCC2CCN(c3ccc(Cl)nn3)CC2)c(C)c1", "read by": "visual reading", "value": ">1 µg/mL"}
{"structure": "CCCCCCCCCCCCCCCCCCOC[C@@H](O)COP(=O)(O)C(=O)O", "value": ">1000 µM"}
{"structure": "CC(Oc1ccc2ncccc2c1)C(=O)N/N=C/c1cc(CO)c(CO)c(CO)c1", "read by": "absorbance", "value": ">512 µM"}
{"structure": "CC#Cc1cn([C@@H]2O[C@H](COP(=O)(NCCC)Oc3ccccc3)[C@@H](O)[C@@H]2O)c(=O)[nH]c1=O", "value": "125 µM"}
{"structure": "Cc1cn([C@H]2C[C@H](O)[C@@H](CO)O2)c(=O)[nH]c1=O", "value": ">826 µM"}
{"structure": "O=C1c2cccc(O)c2C(=O)c2cccc(O)c21", "value": ">41.6 µM"}
{"structure": "COc1cc(C2c3cc4c(cc3C[C@H]3COC(=O)[C@H]23)OCO4)cc(OC)c1OC", "read by": "MTT", "value": ">10 µg/mL"}
{"structure": "ClCc1csc2ccccc12", "read by": "visual reading", "value": ">10 µg/mL"}
{"structure": "CC#Cc1cn([C@@H]2O[C@H](CO)[C@@H](O)[C@@H]2O)c(=O)[nH]c1=O", "value": ">500 µM"}
{"structure": "CC(Oc1ccc2ncccc2c1)C(=O)N/N=C/c1cccc([N+](=O)[O-])c1", "read by": "absorbance", "value": ">512 µM"}
{"structure": "COc1cc(C[C@H]2C(=O)OC[C@@H]2Cc2cc(OC)c3c(c2)OCO3)cc(OC)c1OC", "read by": "MTT", "value": ">50 µg/mL"}
{"structure": "N/C(=N/O)c1cn([C@@H]2O[C@H](CO)[C@@H](O)[C@@H]2O)c2ncnc(N)c12", "value": ">100 µM"}
{"structure": "Nc1nc(=S)n([C@H]2C[C@H](O)[C@@H](CO)O2)cc1I", "value": "272 µM"}
{"structure": "COc1cc(O)c2c(c1)C(=O)c1cc(C)cc(O)c1C2=O", "value": ">35.2 µM"}
{"structure": "CC(Oc1ccc2ncccc2c1)C(=O)N/N=C/c1ccccc1Cl", "read by": "absorbance", "value": ">512 µM"}

The last 3 rows once more:

| structure | read by | value |
|---|---|---|
| Nc1nc(=S)n([C@H]2C[C@H](O)[C@@H](CO)O2)cc1I | - | 272 µM |
| COc1cc(O)c2c(c1)C(=O)c1cc(C)cc(O)c1C2=O | - | >35.2 µM |
| CC(Oc1ccc2ncccc2c1)C(=O)N/N=C/c1ccccc1Cl | absorbance | >512 µM |